2 compounds from patent US20120322768A1, “COMPOUNDS, COMPOSITIONS AND METHODS FOR TREATING PROTOZOAN INFECTIONS” (QUEEN MARY & WESTFIELD COLLEGE, priority 2009, published 2012) can be followed below.

Assay [1] relates to bloodstream form T. brucei. As to the kind of experiment: Anti-proliferative assay on T. brucei bloodstream form (Alamar blue). The assay is classed as cell-based. The following applies: read-out: IC50 T. bruccei, 3 days.
Assay [2] has as its system insect form Leishmania major. As to the kind of experiment: Growth inhibition of L. major promastigotes (Alamar blue). The assay is classed as cell-based. Particulars: read-out: IC50 L. major, 6 days.

“3-Fluoro-4-nitrobenzyl phosphoramide mustard”: the half-inhibitory concentration (IC50) came out at 3.2 µM in assay [1] and 9.05 µM in assay [2].

For the compound `CC1CS(=O)(=O)CCN1/N=C/c1ccc([N+](=O)[O-])o1` (stereo not drawn) [Nifurtimox, reference compound], the IC50 in assay [1] was determined as 1.8 µM.
